Source: publication PMC7053999, “ParB spreading on DNA requires cytidine triphosphate in vitro” (eLife, 2020)

Experiments:
[1] = target: T1, Xanthomonas campestris ParB (Xanthomonas campestris) (UniProt Q8P466); assay: BLI; conditions: 0.01 mM CTP (enhanced), Mg2+; BLI at 22 C: 100 mM Tris-HCl pH 8.0, 100 mM NaCl, 1 mM MgCl2, 0.005% Tween 20; 1 uM protein dimer; recombinant protein; protein details: N-terminal His6-MBP; label: biotin at both 5' ends
T1 sequence (looked up, limits assumed): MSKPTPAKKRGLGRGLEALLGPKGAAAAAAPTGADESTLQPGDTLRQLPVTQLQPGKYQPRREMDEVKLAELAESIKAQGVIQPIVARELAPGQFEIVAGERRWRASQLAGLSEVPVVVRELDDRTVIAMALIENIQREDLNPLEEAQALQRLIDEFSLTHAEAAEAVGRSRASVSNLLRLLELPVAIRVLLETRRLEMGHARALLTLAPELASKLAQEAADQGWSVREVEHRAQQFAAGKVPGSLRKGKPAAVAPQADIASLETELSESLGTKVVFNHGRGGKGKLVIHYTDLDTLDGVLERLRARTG

[2] = tested on: Staphylococcus ParB (Staphylococcus); assay: BLI; conditions: 1 mM CTP (enhanced), Mg2+; BLI at 22 C: 100 mM Tris-HCl pH 8.0, 100 mM NaCl, 1 mM MgCl2, 0.005% Tween 20; 1 uM protein dimer; recombinant protein; protein details: N-terminal His6-MBP; label: biotin at both 5' ends

## CGCCAGGGTTTTCCCAGTCACGACGTTGTAAAACGACGGCCAGTGAATTCGAGCTCGGTACCCGCAGGAGGACGTAGGGTAGGGGGATGTTTCACGTGAAACAGGGGATCCTCTAGAGTCGACCTGCAGGCATGCAAGCTTGGCGTAATCATGGTCATAGCTGTTTCCT (double strand) [169 bp parS closed DNA]
[1]
  binding result: binds
[2]
  binding result: binds

For at least one entry, the source does not settle the construct or the ends of the probe. At least one verdict rests on a figure or table, not on a statement of the authors. For some assays here: Where a protein sequence is shown, tags need not be part of it.
